The exact form of at least one protein or probe is not confirmed.

The target of this series is T1, CodY (B. cereus INRA C3) (Bacillus cereus INRA C3) (UniProt Q819X8).
T1 sequence: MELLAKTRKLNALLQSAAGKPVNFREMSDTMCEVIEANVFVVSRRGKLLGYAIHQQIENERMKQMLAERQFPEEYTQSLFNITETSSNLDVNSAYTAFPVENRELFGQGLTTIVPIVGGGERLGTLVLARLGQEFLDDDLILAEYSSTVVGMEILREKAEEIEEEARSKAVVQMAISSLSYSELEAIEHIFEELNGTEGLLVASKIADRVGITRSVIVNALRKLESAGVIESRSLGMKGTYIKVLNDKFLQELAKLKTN
As to the kind of experiment: EMSA. As to conditions: positive control; recombinant protein; protein details: N-terminal His6 (pET28b(+), NdeI/XhoI); probe letters rebuilt from the primers and the genome. (Mobility shift assays separate free from complexed probe on a gel.)

One may read the Kd as the constant that tells how readily two partners part at equilibrium. With “ATGTAATTCCTCCCTAATTATCGGTCATAATTGCTGCTACAGAATACATGATAATGCAATCGGACTTTGTGTTTTATATAGTGAATTATCAAATACTTTGTAGATGAAACAAAGATAAAATCCCCATTAAACTCCCTCTATGGAAATTATAAATTGTTCGATAAAAACTTTCAATATTTTCAGAAAACATTGTTGAATTGTGATATATCCGTATGCTAACTATGAAATTTTTACAAATATATTAAAAACATTACATAATATGACTAAATATTGAAAAAATATTGAATTTTTAATAAAATTTAATTTGTAATACATATTATTTATTAGGGGAGGAAATAAGGGATGAACAA (double strand) [PinhA1 INRA C3]”, the Kd is 250 nM.
